Compound potency records, mixed from different reports. Data source: NIAID ChemDB in PubChem.

Common to all: growth or infection tests; agent: Mycobacterium tuberculosis

Blank or dashed fields: not listed here.

compound	dose	strain or isolate	method	changes	conditions	measure	value
CCOC(=O)CC(=O)SCC1CS1		H37Rv				MIC	3.125 µg/mL
CCOC(=O)c1ccc(-c2cn(S(=O)(=O)c3ccc(C)cc3)c3ccccc23)nc1C		H37Rv				MIC	25 µg/mL
CO/N=C1\C[C@@H](C)O[C@@H](O[C@@H]2[C@@H](C)[C@H](O[C@H]3CC(C)N(CCC(C)C)C[C@H](C)O3)[C@@H](C)C(=O)O[C@H]([C@@H](C)CO[C@@H]3O[C@H](C)[C@@H](O)[C@@H](OC)[C@H]3OC)[C@H](C)[C@@H](OC(=O)CC(C)C)[C@@H](C)C(=O)[C@@](C)(OC(=O)N3CCO[C@@H](C)C3)C[C@@H]2C)[C@@H]1O		H37Rv	resazurin			MIC	0.863 µM
OCC(S)CS		H37Rv				MIC	50 µg/mL
CC[C@@H](CO)NCCN[C@@H](CC)CO		Isolate 5				MIC	8 µg/mL
c1ccc(-c2nc(NCCc3cnc[nH]3)cc(Nc3cc(C4CC4)[nH]n3)n2)cc1		H37Rv	resazurin			MIC90	125 µM
CCCCCCC(=O)SCC1CS1		H37Rv				MIC	6.25–12.5 µg/mL
Fc1ccc(-c2c(C(c3ccccc3)n3ccnc3)cnn2-c2ccc(F)cc2)cc1		ATCC 35828 (pyrazinamide-resistant)				MIC50	≥100 µM
O=C(Nc1ccc(F)cc1)c1ccc(Cl)cc1OS(=O)(=O)c1ccccc1		H37Rv			14 d	MIC	16 µM
Fc1ccc(-n2ncc(C(c3ccccc3)n3ccnc3)c2-c2ccccc2)cc1		ATCC 35828 (pyrazinamide-resistant)				MIC50	≥100 µM
NC(=O)c1cnccn1		TB206			7 d	EC50	<800 µg/mL
Cc1cc(C)cc(Oc2ccc([N+](=O)[O-])c3cccnc23)c1		H37Rv				MIC	10 µg/mL
Clc1ccc(-c2c(C(c3ccccc3)n3ccnc3)cnn2-c2ccc(Cl)cc2Cl)cc1		ATCC 27294				MIC90	25.3 µM
O=C(Nc1ccc(Cl)cc1)c1ccc(Cl)cc1OS(=O)(=O)c1ccccc1		H37Rv			14 d	MIC	8 µM
NNC(=O)c1ccncc1		ATCC 35837 (ethambutol-resistant)				MIC50	0.1 µM
CC1(C)CC(=O)c2ccc(-c3ccccc3)nc2C1		H37Rv				MIC	>25 µg/mL
CO[C@H]1/C=C/O[C@@]2(C)Oc3c(C)c(O)c4c(O)c(cc(OCC(=O)NNCCO)c4c3C2=O)NC(=O)/C(C)=C\C=C\[C@H](C)[C@H](O)[C@@H](C)[C@@H](O)[C@@H](C)[C@H](OC(C)=O)[C@@H]1C						EC50	0.005 µg/mL
CCOC(=O)c1c(NC(=O)c2cc(C(F)(F)F)cc(C(F)(F)F)c2)sc2c1CCCC2		H37Rv	resazurin			MIC	>200 µM
Clc1ccc(-n2ncc(C(c3ccccc3)n3ccnc3)c2-c2ccccc2)cc1		ATCC 35837 (ethambutol-resistant)				MIC90	≥100 µM
Cc1ccc(S(=O)(=O)c2ccc([N+](=O)[O-])c3cccnc23)cc1		H37Rv				MIC	40 µg/mL
O=C1CC(=O)OCCOCCOCCO1		H37Rv	BACTEC			MIC bound	>12.5 µg/mL
CO/N=C1\C[C@@H](C)O[C@@H](O[C@@H]2[C@@H](C)[C@H](O[C@H]3C[C@@H](C)N(C)C[C@H](C)O3)[C@@H](C)C(=O)O[C@H]([C@@H](C)CO[C@@H]3O[C@H](C)[C@@H](O)[C@@H](OC)[C@H]3OC)[C@H](C)[C@@H](OC(=O)CC(C)C)[C@@H](C)C(=O)[C@@](C)(OC(=O)N3C[C@H](C)O[C@@H](C)C3)C[C@@H]2C)[C@@H]1O		H37Rv	resazurin			MIC	0.886 µM
C[C@H]1COc2c(N3CCN(C)CC3)c(F)cc3c(=O)c(C(=O)O)cn1c23		Isolate 6				MIC	8 µg/mL
O=[N+]([O-])c1ccc(Sc2c(Cl)cccc2Cl)c2ncccc12		H37Rv				MIC	200 µg/mL
O=C(Nc1cccc(C(F)(F)F)c1)c1ccc(Cl)cc1OS(=O)(=O)c1ccccc1		H37Rv			21 d	MIC	125 µM
COc1cc2c(c(NC(C)CCCN=C(N)NC(N)=NC(C)C)c1)NCCC2		H37Rv	resazurin			MIC	6.25 µg/mL
Fc1ccc(-c2c(C(c3ccccc3)n3ccnc3)cnn2-c2ccccc2)cc1		ATCC 35822 (isoniazid-resistant)				MIC90	≥100 µM
CC(C)(C)OC(=O)N1CCc2c(sc(N)c2C(=O)O)C1		H37Rv	resazurin			MIC	>300 µM
O=C(Nc1cccc(Br)c1)c1ccc(Cl)cc1OS(=O)(=O)c1ccccc1		H37Rv			14 d	MIC	16 µM
CCOC(=O)c1c(C(=O)Nc2ccccc2)c(-c2ccccc2)n(NC(=O)c2cccc(Cl)c2)c1C	12.5 µg/mL	H37Rv	BACTEC			inhibition	18%
CCOC(=O)c1c(NC(=O)c2ccccc2)sc2c1CCCC2		H37Rv	resazurin			MIC	>600 µM
O=C(SCC1CS1)c1ccc([N+](=O)[O-])cc1		H37Rv				MIC	6.25 µg/mL
CCN(C(=O)COc1cc2c(O)c3c(O)c(C)c4c(c13)C(=O)[C@@](C)(O/C=C/[C@H](OC)[C@@H](C)[C@@H](OC(C)=O)[C@H](C)[C@H](O)[C@H](C)[C@@H](O)[C@@H](C)/C=C/C=C(/C)C(=O)N2)O4)N1CCOCC1						EC50	0.37 µg/mL
CC(S)C1CS1		H37Rv				MIC	12.5–25 µg/mL
CO/N=C1\C[C@@H](C)O[C@@H](O[C@@H]2[C@@H](C)[C@H](O[C@H]3C[C@@H](C)N(C4CCC4)C[C@H](C)O3)[C@@H](C)C(=O)O[C@H]([C@@H](C)CO[C@@H]3O[C@H](C)[C@@H](O)[C@@H](OC)[C@H]3OC)[C@H](C)[C@@H](OC(=O)CC(C)C)[C@@H](C)C(=O)[C@@](C)(OC(=O)N3CCO[C@@H](C)C3)C[C@@H]2C)[C@@H]1O		H37Rv	resazurin			MIC	0.652 µM
CO[C@H]1/C=C/O[C@@]2(C)Oc3c(C)c(O)c4c(O)c(c(/C=N/N5CCN(C)CC5)c(O)c4c3C2=O)NC(=O)/C(C)=C\C=C\[C@H](C)[C@H](O)[C@@H](C)[C@@H](O)[C@@H](C)[C@H](OC(C)=O)[C@@H]1C		H37Rv	resazurin	Rifampicin-resistant S522L		MIC	3.5 µM
Cc1nc(C(=O)NN)co1	12.5 µg/mL	H37Rv	BACTEC			inhibition	11%
CCCCCN(C(=O)COc1cc2c(O)c3c(O)c(C)c4c(c13)C(=O)[C@@](C)(O/C=C/[C@H](OC)[C@@H](C)[C@@H](OC(C)=O)[C@H](C)[C@H](O)[C@H](C)[C@@H](O)[C@@H](C)/C=C/C=C(/C)C(=O)N2)O4)N(C)C						EC50	0.18 µg/mL
CN1CCN(c2ccc(Nc3ncc(Br)c(NCC(C)(C)CNC(=O)C4CCC4)n3)cn2)CC1		H37Rv				MIC99	20 µM
CCCCOC(=O)SCC1CS1		H37Rv				MIC	3.125 µg/mL
NC1CSc2ccccc2NC1=O	12.5 µg/mL	H37Rv	BACTEC			inhibition	0%
O=[N+]([O-])c1ccc(Sc2nccs2)c2ncccc12		H37Rv				MIC	100 µg/mL
CCOC(=O)c1c(NC(=O)c2c(F)c(F)c(F)c(F)c2F)sc2c1CCN(CC)C2		H37Rv	low oxygen			MIC	>200 µM
CC(C)/C(=N\NC(N)=O)C(c1ccccc1)c1ccccc1	12.5 µg/mL	H37Rv	BACTEC			inhibition	-1%
Nc1ccc(Sc2ccc(Cl)c(Cl)c2)c2ncccc12		H37Rv				MIC	1 µg/mL
CO/N=C1\C[C@@H](C)O[C@@H](O[C@@H]2[C@@H](C)[C@H](O[C@H]3C[C@@H](C)N(C)C[C@H](C)O3)[C@@H](C)C(=O)O[C@H]([C@@H](C)CO[C@@H]3O[C@H](C)[C@@H](O)[C@@H](OC)[C@H]3OC)[C@H](C)[C@@H](OC(=O)CC(C)C)[C@@H](C)C(=O)[C@@](C)(OC(=O)N3C[C@@H](C)O[C@@H](C)C3)C[C@@H]2C)[C@@H]1O		H37Rv	resazurin			MIC	0.533 µM
O=C(Nc1ccc(Cl)cc1C(F)(F)F)C(=O)Nn1c(=S)[nH]c2ccccc2c1=O	6.25 µg/mL	H37Rv	resazurin			inhibition	-2%
CN(C)[C@@H]1CCN(c2cc(Nc3cc(C(=O)NC4CC4)ccn3)nc(-c3ccccc3)n2)C1		H37Rv				MIC99	>20 µM
O=C1CNCC(=O)N1	12.5 µg/mL	H37Rv	BACTEC			inhibition	-19%
Clc1ccc(-n2ncc(C(c3ccccc3)n3ccnc3)c2-c2ccccc2Cl)c(Cl)c1		ATCC 35820 (streptomycin-resistant)				MIC50	22.4 µM
S=C(NCCNC(=S)[S][Sn]([c]1ccccc1)([c]1ccccc1)[c]1ccccc1)[S][Sn]([c]1ccccc1)([c]1ccccc1)[c]1ccccc1		CS-R				MIC	0.4 µg/mL
CCOC(=O)c1ccc(-c2ccc(C)c3c2OC(C)C3)nc1C		H37Rv				MIC	25 µg/mL
S=C(NCNC(=S)c1ccncc1)c1ccncc1			resazurin			MIC bound	>6.25 µg/mL
CCC(C)C(NC=O)C(=O)N[C@@H]1C(=O)N[C@H](C(C)C)C(=O)N[C@@H](C(C)C)C(=O)N2CCC[C@@H]2C(=O)N[C@H](CC(C)C)C(=O)N2CCC[C@@H]2C(=O)OC1C		H37Rv	agar			MIC	4 µg/mL
NC(=O)N/N=C1\CCC(OC(=O)c2ccccc2)CC1CC(=O)O	12.5 µg/mL	H37Rv	BACTEC			inhibition	-10%
O=C(Nc1cccc(F)c1)c1ccc(Cl)cc1OS(=O)(=O)c1ccccc1		H37Rv			14 d	MIC	16 µM
CN(C)[C@@H]1CCN(c2cc(Nc3ccc(C(F)(F)F)cn3)nc(-c3ccccc3)n2)C1		H37Rv	resazurin			MIC90	16 µM
CO/N=C1\C[C@@H](C)O[C@@H](O[C@@H]2[C@@H](C)[C@H](O[C@H]3CC(C)N(C4CCC4)C[C@H](C)O3)[C@@H](C)C(=O)O[C@H]([C@@H](C)CO[C@@H]3O[C@H](C)[C@@H](O)[C@@H](OC)[C@H]3OC)[C@H](C)[C@@H](OC(=O)CC(C)C)[C@@H](C)C(=O)[C@@](C)(OC(=O)N3C[C@@H](C)O[C@@H](C)C3)C[C@@H]2C)[C@@H]1O		H37Rv	resazurin			MIC	0.675 µM
O=C(O)c1c2ccccc2nc2[nH]c(=O)[nH]c(=O)c12		H37Rv	BACTEC			MIC bound	>6.25 µg/mL
CC1(C)CCc2nc(-c3ccc([N+](=O)[O-])cc3)ccc2C1=O		H37Rv				MIC	>25 µg/mL
O=C1NOCC1N=Cc1cc(Cl)ccc1O		H37Rv	BACTEC			MIC bound	≤12.5 µg/mL
CN(C)CCCOc1cc(Nc2cc(C3CC3)[nH]n2)nc(-c2ccccc2)n1		H37Rv				MIC99	5 µM
OC(C1=Nc2cccc3cccc(c23)N1)c1ccccc1		H37Rv	BACTEC			MIC	8 µg/mL
CCOC(=O)c1c(NC(C)=O)sc2c1CCN(CC)C2		H37Rv	resazurin			MIC	>300 µM
Cc1ccc(-c2cc3cc4c(cc3[nH]2)Sc2ccccc2O4)cc1	12.5 µg/mL	H37Rv	BACTEC			inhibition	2%
O=C(SCC1CS1)C(Cl)c1ccccc1		H37Rv				MIC	25 µg/mL
Cc1ccc(S(=O)(=O)NNC(=O)c2cc(C)c(C)cc2N)cc1		H37Rv	BACTEC			MIC	≥12.5 µg/mL
O=C(Nc1ccc(Cl)cc1)c1cc(Cl)ccc1OS(=O)(=O)c1ccccc1		H37Rv			21 d	MIC	4 µM
NNC(=O)C1CCN1C(c1ccccc1)c1ccccc1	12.5 µg/mL	H37Rv	BACTEC			inhibition	20%
C[C@@H]1CN(c2c(F)c(N)c3c(=O)c(C(=O)O)cn(C4CC4)c3c2F)C[C@H](C)N1		Isolate 5				MIC	0.5 µg/mL
Cc1nnc2n1N=C(c1ccc(O)c(O)c1O)CS2.Cl	12.5 µg/mL	H37Rv	BACTEC			inhibition	0%
O=[N+]([O-])c1ccc(Sc2ccccn2)c2ncccc12		H37Rv				MIC	40 µg/mL
CCOC(=O)CNC(=O)c1[nH]nc2c1C(=O)C(Cl)=CC2=O		H37Rv	resazurin			MIC bound	>6.25 µg/mL
NNC(=O)c1ccncc1		CSU H37Rv	BACTEC			MIC	0.023 µg/mL
S=C(Nc1nc2ccccc2s1)SSC(=S)Nc1nc2ccccc2s1		H37Rv				MIC	8 µg/mL
Fc1ccc(-c2c(C(c3ccccc3)n3ccnc3)cnn2-c2ccc(F)cc2F)cc1		ATCC 35822 (isoniazid-resistant)				MIC50	≥100 µM

Repeating the first 9 entries:

compound,dose,strain or isolate,method,changes,conditions,measure,value
CCOC(=O)CC(=O)SCC1CS1,,H37Rv,,,,MIC,3.125 µg/mL
CCOC(=O)c1ccc(-c2cn(S(=O)(=O)c3ccc(C)cc3)c3ccccc23)nc1C,,H37Rv,,,,MIC,25 µg/mL
CO/N=C1\C[C@@H](C)O[C@@H](O[C@@H]2[C@@H](C)[C@H](O[C@H]3CC(C)N(CCC(C)C)C[C@H](C)O3)[C@@H](C)C(=O)O[C@H]([C@@H](C)CO[C@@H]3O[C@H](C)[C@@H](O)[C@@H](OC)[C@H]3OC)[C@H](C)[C@@H](OC(=O)CC(C)C)[C@@H](C)C(=O)[C@@](C)(OC(=O)N3CCO[C@@H](C)C3)C[C@@H]2C)[C@@H]1O,,H37Rv,resazurin,,,MIC,0.863 µM
OCC(S)CS,,H37Rv,,,,MIC,50 µg/mL
CC[C@@H](CO)NCCN[C@@H](CC)CO,,Isolate 5,,,,MIC,8 µg/mL
c1ccc(-c2nc(NCCc3cnc[nH]3)cc(Nc3cc(C4CC4)[nH]n3)n2)cc1,,H37Rv,resazurin,,,MIC90,125 µM
CCCCCCC(=O)SCC1CS1,,H37Rv,,,,MIC,6.25–12.5 µg/mL
Fc1ccc(-c2c(C(c3ccccc3)n3ccnc3)cnn2-c2ccc(F)cc2)cc1,,ATCC 35828 (pyrazinamide-resistant),,,,MIC50,≥100 µM
O=C(Nc1ccc(F)cc1)c1ccc(Cl)cc1OS(=O)(=O)c1ccccc1,,H37Rv,,,14 d,MIC,16 µM

Percent inhibition refers to the dose given; in toxicity tests it is the harm to the cells. MIC50, MIC90 and the like: level of inhibition, or share of isolates inhibited. ECn: concentration that inhibits the pathogen or its effect by n%. MIC bound: limit read from a one-dose screen. Lines come from different laboratories, so protocols vary. Two numbers with a dash give a range or band.